Compound potency records, mixed from different reports. Data source: NIAID ChemDB in PubChem.

Shared fields: whole-cell or culture tests; species: Mycobacterium tuberculosis

Rows are shuffled and stem from different studies. An empty or dashed field is not shown. MIC bound comes from a single tested concentration. A number after MIC or MFC names an inhibition level or a share of isolates. ECn is the concentration giving n% inhibition of infection, replication or growth. Inhibition is in % at the dose shown (toxicity tests: loss of growth or viability).

structure,cells,read by,strain,endpoint,dose,value
COC(=O)c1cc(C2CCCC2)nc2c(C3CCCC3)cccc12,,,H37Rv,inhibition,6.25 µg/mL,38%
CC1CCc2c(c3c(=O)[nH]c(=O)[nH]c3oc2=O)C1,,BACTEC,H37Rv,inhibition,12.5 µg/mL,17%
C=CC(=C)CCC1C(=C)CCC2[C@]1(C)CC[C@@H](OC(C)=O)[C@]2(C)C(=O)O,,,,MIC,,14.4 µg/mL
O=[N+]([O-])c1ccc(Oc2cnc3nc(-c4ccccc4F)[nH]c3c2)cc1,,resazurin / absorbance,H37Rv,MIC80,,2.3 µM
CCCN(CCC)/N=C/c1c2c(O)c3c(O)c(C)c4c(c3c1O)C(=O)[C@@](C)(O/C=C/[C@H](OC)[C@@H](C)[C@@H](O)[C@H](C)[C@H](O)[C@H](C)[C@@H](O)[C@@H](C)/C=C/C=C(/C)C(=O)N2)O4,,,H37Rv,MIC,,0.05 µg/mL
O=C(O)c1ccc2ccccc2n1,,,H37Rv,inhibition,6.25 µg/mL,10%
O=C1c2ccccc2-n2c1nc1ccc(F)cc1c2=O,,,H37Rv,MIC,,0.13 µg/mL
C=CCOc1cc2c(c3oc(=O)cc(CCC)c13)C(O)[C@H](C)[C@@H](C)O2,,,H37Ra,MIC,,>128 µg/mL
O=[N+]([O-])c1ccc(Oc2cnc3nc(-c4ccccc4Cl)[nH]c3c2)cc1,,resazurin / absorbance,H37Rv,MIC80,,1.7 µM
CO[C@H]1/C=C/O[C@@]2(C)Oc3c(C)c(O)c4c(O)c(cc(N=NC(=N)N)c4c3C2=O)NC(=O)/C(C)=C\C=C\[C@H](C)[C@H](O)[C@@H](C)[C@@H](O)[C@@H](C)[C@H](OC(C)=O)[C@@H]1C,,,H37Rv,MIC,,0.001 µg/mL
C#CCOc1c2c(c3c(CCC)cc(=O)oc3c1C(=O)CC)OC(C)(C)C=C2,,,H37Ra,MIC,,128 µg/mL
CCN(CC)Cc1c2c(O)c3c(O)c(C)c4c(c3c1O)C(=O)[C@@](C)(O/C=C/[C@H](OC)[C@@H](C)[C@@H](O)[C@H](C)[C@H](O)[C@H](C)[C@@H](O)[C@@H](C)/C=C/C=C(/C)C(=O)N2)O4,,,H37Rv,MIC,,2 µg/mL
O=C(O)Cc1cc(C2CCCCC2)nc2ccccc12,,,H37Rv,inhibition,6.25 µg/mL,15%
[N-]=[N+]=NCCCCCCCCN1C(=O)C(=O)c2ccccc21,,,MC2 6230,MIC99,,175 µM
CC(C)=CCC1C(=O)C(CC=C(C)C)(CC=C(C)C)C(O)C(C(=O)C(C)C)C1O,,,Isolate J,MIC,,20.3 µg/mL
O=[N+]([O-])c1ccc(Oc2cnc3nc(-c4cc(O)ccc4Br)[nH]c3c2)cc1,,resazurin / absorbance,H37Rv,MIC80,,1.1 µM
CO[C@H]1/C=C/O[C@@]2(C)Oc3c(C)c(O)c4c(O)c(c(/C=N/N5CCN(C)CC5)c(O)c4c3C2=O)NC(=O)/C(C)=C\C=C\[C@H](C)[C@H](O)[C@@H](C)[C@@H](O)[C@@H](C)[C@H](OC(C)=O)[C@@H]1C,,,Erdman,MIC,,0.3 µg/mL
COc1ccc(-c2nc3ncc(Oc4ccc([N+](=O)[O-])cc4)cc3[nH]2)cc1OC,,resazurin / absorbance,H37Rv,MIC80,,1.4 µM
COc1ccc2c(c1)C(=O)c1nc3ccccc3c(=O)n1-2,,,H37Rv,MIC,,0.5 µg/mL
CC(=O)Nc1ccc(/C=N/NC(N)=S)cc1F,,resazurin,Erdman,MIC90,,0.2 µg/mL
Cc1cc2c(=O)cc(-c3ccc(Cl)cc3Cl)oc2c(C(=O)O)c1C,,BACTEC,H37Rv,MIC bound,,>12.5 µg/mL
O=[N+]([O-])c1ccc(Oc2cnc3nc(-c4ccc(O)c(O)c4)[nH]c3c2)cc1,,resazurin / absorbance,H37Rv,MIC80,,1.2 µM
CCN(CC)CCN(C)Cc1coc(-c2ccccc2)c1Cl.Cl.Cl,VERO,BACTEC,H37Rv,MIC,,1.56 µg/mL
CO/N=C/c1c2c(O)c3c(O)c(C)c4c(c3c1O)C(=O)[C@@](C)(O/C=C/[C@H](OC)[C@@H](C)[C@@H](OC(C)=O)[C@H](C)[C@H](O)[C@H](C)[C@@H](O)[C@@H](C)/C=C/C=C(/C)C(=O)N2)O4,,,H37Rv,MIC,,0.05 µg/mL
COc1ccc(C(=O)Nc2ccc(C(=O)NN3C(=O)CSC3c3ccc(F)cc3)cc2)cc1,,,H37Rv,MIC,,>6.25 µg/mL
O=c1[nH]nc(-c2ccc([N+](=O)[O-])o2)o1,,BACTEC,H37Rv,MIC bound,,>12.5 µg/mL
CO[C@H]1/C=C/O[C@@]2(C)Oc3c(C)c(O)c4c(O)c(c5c(c4c3C2=O)NC2(CCN(CC(C)C)CC2)N=5)=NC(=O)/C(C)=C\C=C\[C@H](C)[C@H](O)[C@@H](C)[C@@H](O)[C@@H](C)[C@H](OC(C)=O)[C@@H]1C,,,CSU22,MIC,,>5 µg/mL
CCn1cc(C(=O)O)c(=O)c2cc(F)c(N3CCN(Cn4c(O)c(N=NC(N)=O)c5cc(Cl)ccc54)CC3)cc21,,BACTEC,H37Rv,EC50,,<12.5 µg/mL
CCCCCCCCCCCCCCCCCC(=O)NC(=O)Nc1ccccc1OC,,BACTEC,H37Rv,inhibition,12.5 µg/mL,0%
COc1ccc(Nc2nnc(-c3ccc(NC(=O)c4ccc(OC)cc4)cc3)o2)cc1,,,H37Rv,inhibition,6.25 µg/mL,0%
COc1cccc2c1C(=O)c1c(O)c3c(c(O)c1C2=O)C[C@@](O)(/C(C)=N/NC(=O)CO)CC3OC1CC(N)C(O)C(C)O1.Cl,,BACTEC,H37Rv,MIC,,≥12.5 µg/mL
O=C1c2c(Cl)cccc2-n2c1nc1ccccc1c2=O,,,H37Rv,MIC,,0.5 µg/mL
C=CCn1c[n+](C)c2ncnc(NOC)c21,,,,inhibition,6.25 µg/mL,27%
CCOc1cc(/C=N/NC(=O)c2ccc(NC(=O)c3ccc(OC)cc3)cc2)ccc1O,,,H37Rv,MIC,,>6.25 µg/mL
CO[C@H]1/C=C/O[C@@]2(C)Oc3c(C)c(O)c4c(O)c(c(/C=N/N(c5ccccc5)c5ccccc5)c(O)c4c3C2=O)NC(=O)/C(C)=C\C=C\[C@H](C)[C@H](O)[C@@H](C)[C@@H](O)[C@@H](C)[C@H](OC(C)=O)[C@@H]1C,VERO,BACTEC,H37Rv,MIC,,0.2 µg/mL
[N-]=[N+]=NCCN1C(=O)C2(OCCO2)c2cc(F)ccc21,,,MC2 6230,MIC99,,>360 µM
O=C1C=C(Nc2ccc(S(=O)(=O)Nc3nccs3)cc2)c2ccccc2C1=O,,resazurin,H37Rv,inhibition,6.25 µg/mL,62%
[N-]=[N+]=NCCCCCN1C(=O)C(=O)c2cc(Cl)ccc21,,,MC2 6230,MIC99,,171 µM
CCn1cc(C(=O)O)c(=O)c2cc(F)c(N3CCN(Cn4c(O)c(N=NC(N)=S)c5cc(Cl)ccc54)CC3)cc21,,BACTEC,H37Rv,EC50,,<12.5 µg/mL
O=[N+]([O-])c1ccc(Oc2cnc3nc(-c4cccc(Br)c4)[nH]c3c2)cc1,,resazurin / absorbance,H37Rv,MIC80,,1.1 µM
CCOC(=O)Nc1cc(Cl)c2nnn(C(=O)OCC)c2n1,,BACTEC,H37Rv,inhibition,12.5 µg/mL,-2%
CCOc1cc(C2SCC(=O)N2NC(=O)c2ccc(NC(=O)c3ccc(OC)cc3)cc2)ccc1O,,,H37Rv,MIC,,>6.25 µg/mL
C/C(=N\Nc1cc(C)c2cccc(C)c2n1)c1ccccn1,,BACTEC,H37Rv,MIC bound,,>12.5 µg/mL
CCCc1cc(=O)oc2c(C(=O)CC)c(O)c3c(c12)OC(C)(C)C=C3,,,H37Ra,MIC,,128 µg/mL
CCn1cc(C(=O)O)c(=O)c2cc(F)c(N3CCN(CN4C(=O)C(=O)c5ccccc54)CC3)cc21,,BACTEC,H37Rv,EC50,,<12.5 µg/mL
O=C(O)/C=C\C(=O)NNc1ccc([N+](=O)[O-])cc1[N+](=O)[O-],,BACTEC,H37Rv,MIC bound,,>12.5 µg/mL
COC(=O)c1ccc2ccccc2n1,,,H37Rv,inhibition,6.25 µg/mL,9%
COc1ccc(C(=O)Nc2ccc(C(=O)N/N=C/c3ccc([N+](=O)[O-])o3)cc2)cc1,,,H37Rv,inhibition,6.25 µg/mL,0%
Cc1ccc2c(c1)C(=O)C(=O)N2CCCCCCCCN=[N+]=[N-],,,MC2 6230,MIC99,,167 µM
COC(=O)c1cc(C2CCCCC2)nc2ccccc12,,,H37Rv,inhibition,6.25 µg/mL,3%
CCOC(=O)CN/N=C(\N)CSS(=O)(=O)O,,BACTEC,H37Rv,MIC bound,,>12.5 µg/mL
CO/N=C/c1c2c(O)c3c(O)c(C)c4c(c3c1O)C(=O)[C@@](C)(O/C=C/[C@H](OC)[C@@H](C)[C@@H](O)[C@H](C)[C@H](O)[C@H](C)[C@@H](O)[C@@H](C)/C=C/C=C(/C)C(=O)N2)O4,,,H37Rv,MIC,,0.2 µg/mL
C#CCOc1cc2c(c3oc(=O)cc(CCC)c13)C(O)[C@H](C)[C@@H](C)O2,,,H37Ra,MIC,,>128 µg/mL
O=C(O)c1ccc(N2N=C3C(=CC(=O)c4ccccc43)SCC2=O)cc1,,BACTEC,H37Rv,inhibition,12.5 µg/mL,99%
CCn1cc(C(=O)O)c(=O)c2cc(F)c(N3CCN(Cn4c(O)c(N=NC(=O)c5ccncc5)c5cc(Cl)ccc54)CC3)cc21,,BACTEC,H37Rv,EC50,,<12.5 µg/mL
[N-]=[N+]=NCCCCCN1C(=O)C(=O)c2cc(F)ccc21,,,MC2 6230,MIC99,,>368 µM
Nc1ccc2cc3[nH]c4cc(N)ccc4c3nc2c1,VERO,resazurin,H37Rv,MIC,,3.13 µg/mL
[N-]=[N+]=NCCCCCN1C(=O)C2(OCCO2)c2ccccc21,,,MC2 6230,MIC99,,166 µM
CO[C@H]1/C=C/O[C@@]2(C)Oc3c(C)c(O)c4c(O)c(c(CN5CCCC5)c(O)c4c3C2=O)NC(=O)/C(C)=C\C=C\[C@H](C)[C@H](O)[C@@H](C)[C@@H](O)[C@@H](C)[C@H](O)[C@@H]1C,,,H37Rv,MIC,,0.1 µg/mL
COc1ccc(C(=O)Nc2ccc(C(=O)N/N=C/c3ccc(Br)cc3)cc2)cc1,,,H37Rv,inhibition,6.25 µg/mL,0%
COC(=O)c1c(C2CCCC2)nc2ccccc2c1C1CCCC1,,,H37Rv,MIC,,6.25 µg/mL
c1ccc2c(c1)nc1cc(NC3CCCCC3)c(=NC3CCCCC3)cc-1n2C1CCCCC1,,,INH-r,MIC,,3.1 µg/mL
C=C[C@@H](O)C#CC#CC/C=C\CCCCCCC,,resazurin,H37Ra,MIC,,25.6 µM
O=[N+]([O-])c1ccc(Oc2cnc3nc(-c4cccc(O)c4O)[nH]c3c2)cc1,,resazurin / absorbance,H37Rv,MIC80,,0.6 µM
CC1(C)C=CC2=C(O1)C(=O)c1ccccc1C2=O,,BACTEC,H37Rv,MIC bound,,>12.5 µg/mL
CONc1ncnc2c1n(C/C=C(\C)CC/C=C(\C)CC/C=C(\C)CCC=C(C)C)c[n+]2C,,,,inhibition,6.25 µg/mL,100%
O=C1C(=O)c2ccccc2C(O)=C1CC=C(Cl)Cl,,BACTEC,H37Rv,inhibition,128 µg/mL,100%
CCN(CC)C(=O)COc1cc2c(O)c3c(O)c(C)c4c(c13)C(=O)[C@@](C)(O/C=C/[C@H](OC)[C@@H](C)[C@@H](OC(C)=O)[C@H](C)[C@H](O)[C@H](C)[C@@H](O)[C@@H](C)/C=C/C=C(/C)C(=O)N2)O4,,,H37Rv,MIC,,0.1 µg/mL
O=C(Nc1cc2c(oc1=O)CCC2)c1cnccn1,,BACTEC,H37Rv,inhibition,6.25 µg/mL,15%
Cc1cccc(-c2nc3ncc(Oc4ccc([N+](=O)[O-])cc4)cc3[nH]2)c1,,resazurin / absorbance,H37Rv,MIC80,,1.4 µM
CCOc1ccc(-n2c(=O)c3nn4c(=O)n(-c5ccc(OCC)cc5)c(=O)c4nn3c2=O)cc1,,BACTEC,H37Rv,MIC bound,,>12.5 µg/mL
CN[C@@H]1[C@H](O[C@H]2[C@H](O[C@H]3[C@H](O)[C@@H](O)[C@H](N=C(N)N)[C@@H](O)[C@@H]3N=C(N)N)O[C@@H](C)[C@]2(O)C=O)O[C@@H](CO)[C@H](O)[C@H]1O,,,Isolate H,MIC,,>2 µg/mL
Cn1c(=O)c2nc(-c3ccc(Cl)c(Cl)c3)c(-c3ccc(Cl)c(Cl)c3)nc2n(C)c1=O,,BACTEC,H37Rv,inhibition,12.5 µg/mL,89%
CCn1cc(C(=O)O)c(=O)c2cc(F)c(N3CCN(Cn4c(O)c(N=NC(N)=S)c5ccccc54)CC3)cc21,,BACTEC,H37Rv,EC50,,<12.5 µg/mL

A second listing of 6 rows from above:

structure,cells,read by,strain,endpoint,dose,value
[N-]=[N+]=NCCCCCN1C(=O)C(=O)c2cc(Cl)ccc21,,,MC2 6230,MIC99,,171 µM
COC(=O)c1cc(C2CCCC2)nc2c(C3CCCC3)cccc12,,,H37Rv,inhibition,6.25 µg/mL,38%
C=C[C@@H](O)C#CC#CC/C=C\CCCCCCC,,resazurin,H37Ra,MIC,,25.6 µM
COC(=O)c1ccc2ccccc2n1,,,H37Rv,inhibition,6.25 µg/mL,9%
CCN(CC)Cc1c2c(O)c3c(O)c(C)c4c(c3c1O)C(=O)[C@@](C)(O/C=C/[C@H](OC)[C@@H](C)[C@@H](O)[C@H](C)[C@H](O)[C@H](C)[C@@H](O)[C@@H](C)/C=C/C=C(/C)C(=O)N2)O4,,,H37Rv,MIC,,2 µg/mL
COc1ccc2c(c1)C(=O)c1nc3ccccc3c(=O)n1-2,,,H37Rv,MIC,,0.5 µg/mL